Anti-infective test results gathered from many reports (values: NIAID ChemDB through PubChem).

Common to all: tests in culture; agent: Candida albicans; read-out: EC50

An empty or dashed field is not shown.

SMILES,strain or isolate,value
O=Cc1cc(-c2ccc(F)cc2)on1,-,28.81 µg/mL
COc1cccc(C(=O)Oc2c(OC)cc3ccnc4c3c2N(C)C=C4)c1,-,>15 µg/mL
Cc1c(C(=O)N(CCO)CCO)cc(-c2ccc([N+](=O)[O-])cc2)n1-c1ccc(Cl)cc1,20 strains,>200 µg/mL
OC[C@H]1CO[C@](Cn2ccnc2)(c2ccc(-c3ccccc3)cc2)O1,44 strains,64 µg/mL
COc1cc(NC(C)CCCN)c2nc(C(C)(C)C)cc(C)c2c1Oc1cccc(C(F)(F)F)c1,-,6.5 µg/mL
Oc1cccc2c1[C@H](O)[C@H]1O[C@H]1C21Oc2cccc3cccc(c23)O1,-,>20 µg/mL
Cn1c2ccccc2c2c1cc1cc(Br)ccc1[n+]2C,ATCC 90028,3.1 µg/mL
COc1cc(O)c(C(=O)CCc2ccccc2)c(OC)c1,-,>50 µg/mL
CS(=O)(=O)OCC1COC(Cn2ccnc2)(c2ccc(-c3ccccc3)cc2)O1,44 strains,64 µg/mL
Cc1cc2c(c(O)c1-c1c(C)cc(O)c3c1C(=O)C=CC3=O)C(=O)C=CC2=O,-,>20 µg/mL
CC(=O)c1c(O)cc(O)c(C=O)c1O,-,>20 µg/mL
O=Cc1cc(-c2ccc([N+](=O)[O-])cc2)no1,-,43.18 µg/mL
CC(C)CC(=O)c1c(O)cc(O)c(C=O)c1O,-,>20 µg/mL
Cn1c2ccccc2c2c1cc1cc(Br)ccc1[n+]2CCCCCc1ccccc1,ATCC 90028,43 µg/mL
Cc1c(C(=O)O)c(-c2ccc(Cl)cc2)cn1-c1ccc(F)cc1,40 strains,>83.33 µg/mL
COc1ccc(C(Cc2ccc(Cl)cc2)n2ccnc2)cc1,28 strains,<256 µg/mL
Cc1c(C(=O)N(CCO)CCO)cc(-c2ccc([N+](=O)[O-])cc2)n1-c1ccc(Cl)cc1Cl,20 strains,>200 µg/mL
C[n+]1c2ccccc2cc2c1c1ccccc1n2CCCCCc1ccccc1,ATCC 90028,>20 µg/mL
Cc1ccc(Nc2ncc(C)c(Nc3ccc(C)cc3)n2)cc1,-,4.3 µg/mL
COc1cc2ccnc3c2c(c1OC(=O)N1CCCC1)N(C)C=C3,-,>15 µg/mL
CC(=O)N1CCN(c2ccc(OC[C@H]3CO[C@](Cn4ccnc4)(c4ccc(-c5ccccc5)cc4)O3)cc2)CC1,44 strains,>256 µg/mL
CCC(=O)c1c(O)cc(O)c(C=O)c1O,-,>20 µg/mL
CCC(c1ccc(Cl)cc1)C(c1ccc(OC)cc1)n1cncn1,28 strains,<256 µg/mL
CCCCCCCCn1c(-c2ccc([N+](=O)[O-])cc2)cc(C(=O)N(CCO)CCO)c1C,20 strains,>200 µg/mL
COc1ccc(Nc2ncc(C)c(Nc3ccc(OC)cc3)n2)cc1,-,9.6 µg/mL
C=CC(C)(O)CCC1C(C)=CC[C@H](Br)[C@@]1(C)CCC=C(C)C,ATCC 10231,>100 µM
COc1cc(OC)c2c(c1)OC(c1ccccc1)CC2,-,>50 µg/mL
COCC(=O)OC[C@H]1CC[C@@](C)(C=O)[C@]1(C)C(=O)O,2005E,81 µM
Nc1[nH]c(=O)ncc1F,-,<5 µg/mL
COc1ccc(C(=O)Cc2ccc(Cl)cc2)cc1,28 strains,>256 µg/mL
Cc1c(O)c(C=O)c(O)c(C=O)c1O,-,>20 µg/mL
COc1cc(OC)c2c(=O)cc(-c3ccccc3)oc2c1,-,>50 µg/mL
C[C@H]1O[C@@H](OC[C@H]2CC[C@@](C)(C=O)[C@]2(C)C(=O)O)C[C@@H]2OC(C)(C)O[C@@H]21,2005E,162 µM
Cc1c(C(=O)O)c(-c2ccc(F)cc2)cn1-c1ccc(Br)cc1,40 strains,>16.77 µg/mL
Fc1ccc2[nH+]c3c4ccccc4n(CCCCCC4CCCCC4)c3cc2c1,ATCC 90028,>50 µg/mL
O[C@](Cn1cncn1)(Cn1cnc(/C=C/c2ccc(OCC(F)(F)C(F)F)cc2)n1)c1ccc(F)cc1F,CA505,0.3 µM
COc1ccc(C(C(Cc2ccc(Cl)cc2Cl)c2ccc(Cl)cc2)n2ccnc2)cc1,28 strains,<256 µg/mL
COc1cc2ccnc3c2c(c1OC(=O)c1ccc(C#N)cc1)N(C)C=C3,-,>15 µg/mL
Cc1c(C(=O)N2CCN(C)CC2)cc(-c2ccc([N+](=O)[O-])cc2)n1Cc1ccccc1,20 strains,>200 µg/mL
COC(=O)[C@H]1[C@@H]2C[C@@H](O[C@@H]3O[C@H](C)[C@@H](O)[C@H](N)[C@@H]3O)/C=C/C=C/C=C/C=C/C=C/C=C/C=C/[C@H](C)[C@@H](O)[C@H](C)[C@H](C)OC(=O)C[C@H](O)C[C@H](O)[C@@H](O)CC[C@H](O)C[C@H](O)C[C@](O)(C[C@@H]1O)O2,-,<5 µg/mL
COc1c(O)c2c(=O)cc(OC)c3c4c(OC)cc(=O)c5c(O)c(OC)c6c(c(c1CC(C)(O)C6C(C)=O)c23)c54,-,0.65 µg/mL
c1ccc(-c2ccc(C(c3cccc4ccccc34)n3ccnc3)cc2)cc1,23 strains,>256 µg/mL
COc1ccc(C(Cc2ccc(Cl)cc2Cl)C(c2ccc(OC)cc2)n2cnnc2)cc1,28 strains,>256 µg/mL
COc1cc2ccnc3c2c(c1OC(=O)c1ccc(C(C)(C)C)cc1)N(C)C=C3,-,6.5 µg/mL
c1ccc(CCCCC[n+]2c3ccccc3cc3[nH]c4ccccc4c32)cc1,ATCC 90028,80 µg/mL
COc1cc2ccnc3c2c(c1OC(=O)c1cccc(F)c1F)N(C)C=C3,-,>15 µg/mL
C[C@@H](c1ncncc1F)[C@](O)(Cn1cncn1)c1ccc(F)cc1F,-,<5 µg/mL
Cc1c(C(=O)O)c(-c2ccc(F)cc2)cn1-c1ccc(F)cc1,40 strains,>41.67 µg/mL
COc1ccc2[nH+]c3c4ccccc4n(CCCCCC4CCCCC4)c3cc2c1,ATCC 90028,>50 µg/mL
Cc1cnc(Nc2ccccc2)nc1Nc1ccccc1,-,9 µg/mL
Cc1onc(-c2ccc(OCc3ccccc3)cc2)c1C=O,-,>50 µg/mL
c1ccc2c(c1)cc1[nH]c3ccccc3c1[n+]2CCCCCC1CCCCC1,ATCC 90028,<1.3 µg/mL
C[C@@H]1CCC2(OC1)OC1CC3C4C[C@H](OC5O[C@@H](CO)[C@H](O)[C@@H](O)[C@@H]5O)[C@H]5C[C@@H](OC6O[C@H](CO)[C@@H](O)[C@H](O)[C@H]6O)CC[C@]5(C)C4CC[C@]3(C)C1[C@@H]2C,ATCC 90028,10 µg/mL
Cc1ccc(-c2cn(-c3ccc(F)cc3)c(C)c2C(=O)O)cc1,40 strains,<73.33 µg/mL
O=Cc1cc(-c2cccc(Cl)c2)no1,-,28.31 µg/mL
CCC(c1ccc(OC)cc1)C(O)c1ccc(OC)cc1,28 strains,>256 µg/mL
CC(C)[C@@H]1CC=CC2C3[C@](C)(O)[C@H](O)C[C@H](Br)[C@@]3(C)CC[C@@]21CBr,ATCC 10231,>100 µM
C[C@@]1(C=O)CC[C@H](CO)[C@@]1(C)C(=O)O,2005E,45 µM
CCCCc1ccc(C(=O)Oc2c(OC)cc3ccnc4c3c2N(C)C=C4)cc1,-,3 µg/mL
O=c1cn[nH]c(=O)[nH]1,-,>100 µg/mL
COc1cc2ccnc3c2c(c1OC(=O)c1ccc(C)cc1)N(C)C=C3,-,>15 µg/mL
COc1ccc(C(=O)C(Cc2ccc(Cl)cc2Cl)c2ccc(OC)cc2)cc1,28 strains,>256 µg/mL

For reference, 6 entries again:

SMILES | strain or isolate | value
COc1ccc2[nH+]c3c4ccccc4n(CCCCCC4CCCCC4)c3cc2c1 | ATCC 90028 | >50 µg/mL
COc1cc(O)c(C(=O)CCc2ccccc2)c(OC)c1 | - | >50 µg/mL
Cc1c(O)c(C=O)c(O)c(C=O)c1O | - | >20 µg/mL
COc1ccc(C(Cc2ccc(Cl)cc2)n2ccnc2)cc1 | 28 strains | <256 µg/mL
O=Cc1cc(-c2ccc([N+](=O)[O-])cc2)no1 | - | 43.18 µg/mL
COc1ccc(C(=O)C(Cc2ccc(Cl)cc2Cl)c2ccc(OC)cc2)cc1 | 28 strains | >256 µg/mL

Conditions beyond the fields shown may differ between rows. ECn: concentration that inhibits the pathogen or its effect by n%.